Experimental data reported in the supplement of paper PMC3578754.
Fold change is the IC50 on the isolate divided by the IC50 on a reference virus; 1 = unchanged, higher = more resistant. Changes are given against the subtype B consensus. No active / inactive call. The values were gathered from many studies (numbered anew) with different assays, which the source does not name. Most viruses are clinical isolates; some are laboratory strains or clones with known resistance changes. Isolates with mixed residues are left out; stretches that were not sequenced show no change. Round top values that many isolates share are read here as limits; other very high values and 0.1 may be limits too.

Legend:
Assay in all cases: fold change of IC50 against reference virus; higher = more resistant
delavirdine = compound: CC(C)Nc1cccnc1N1CCN(C(=O)c2cc3cc(NS(C)(=O)=O)ccc3[nH]2)CC1 [delavirdine]
Procedure: (§1)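 Cell-culture drug susceptibility tests of virus bearing the reverse transcriptase of each isolate, gathered from many studies.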

tenofovir = compound: C[C@H](Cn1cnc2c(N)ncnc21)OCP(=O)(O)O [tenofovir]
Procedure: as §1

nevirapine = compound: Cc1ccnc2c1NC(=O)c1cccnc1N2C1CC1 [nevirapine]
Procedure: as §1

stavudine = compound: Cc1cn([C@H]2C=C[C@@H](CO)O2)c(=O)[nH]c1=O [stavudine]
Procedure: as §1

zidovudine = compound: Cc1cn([C@H]2C[C@H](N=[N+]=[N-])[C@@H](CO)O2)c(=O)[nH]c1=O [zidovudine]
Procedure: as §1

emtricitabine = compound: Nc1nc(=O)n([C@@H]2CS[C@H](CO)O2)cc1F [emtricitabine]
Procedure: as §1

abacavir = compound: Nc1nc(NC2CC2)c2ncn([C@H]3C=C[C@@H](CO)C3)c2n1 [abacavir]
Procedure: as §1

efavirenz = compound: O=C1Nc2ccc(Cl)cc2[C@@](C#CC2CC2)(C(F)(F)F)O1 [efavirenz]
Procedure: as §1

didanosine = compound: O=c1[nH]cnc2c1ncn2[C@H]1CC[C@@H](CO)O1 [didanosine]
Procedure: as §1

zalcitabine = compound: Nc1ccn([C@H]2CC[C@@H](CO)O2)c(=O)n1 [zalcitabine]
Procedure: as §1

Test System | fold change of IC50 against reference virus (delavirdine) | fold change of IC50 against reference virus (tenofovir) | fold change of IC50 against reference virus (nevirapine) | fold change of IC50 against reference virus (stavudine) | fold change of IC50 against reference virus (zidovudine) | fold change of IC50 against reference virus (emtricitabine) | fold change of IC50 against reference virus (abacavir) | fold change of IC50 against reference virus (efavirenz) | fold change of IC50 against reference virus (didanosine) | fold change of IC50 against reference virus (zalcitabine)
HIV-1 isolate 7 (reverse transcriptase changes: D67G S68G K70R V108I D123E I135T I142V D177E M184V T200A R211K T215F K219E E297K, study 15) | 1.6 | 1.2 | 2.9 | 1.4 | 23 | ≥ 200 | 5 | 2.1 | 1.4 | –
HIV-1 isolate 61 (reverse transcriptase changes: V118I K122R D123E G196E Q207E R211K F214L, study 15) | 1.2 | 0.9 | 1 | 0.8 | 1.2 | 0.9 | 0.8 | 1 | 0.9 | –
HIV-1 isolate 66 (reverse transcriptase changes: T69S K70R A98S K103N K122E I135L Q174H D177G V179I Y188L T200A I202V R211K F214L K219Q A272P E297A, study 15) | 500 | 1.8 | 500 | 1.1 | 11 | 1.1 | 1.4 | ≥ 500 | 0.9 | –
HIV-1 isolate 130 (reverse transcriptase changes: K20T K49R R83K K122E E138A T200I I202V V245E A272P T296S, study 15) | 2.5 | 0.7 | 1.6 | 0.8 | 0.7 | 1 | 0.8 | 1.4 | 1 | –
HIV-1 isolate 182 (reverse transcriptase changes: A62V V75I F77L F116Y Q151M, study 136) | – | 2.5 | – | 15 | 128 | 8.1 | 7 | – | 13 | –
HIV-1 isolate 238 (reverse transcriptase changes: Q151M, study 136) | – | 0.8 | – | 3.2 | 2 | 1.4 | 3.6 | – | 4 | –
HIV-1 isolate 244 (reverse transcriptase changes: V21I V35M K43Q D67G S68G K70R V90I K104N I135T E138Q S162A M184V T215F K219Q A272P K277R T286A E297K, study 15) | 5.3 | 1.7 | 2.8 | 1.7 | 65 | ≥ 200 | 6.5 | 1.2 | 2 | –
HIV-1 isolate 283 (reverse transcriptase changes: K70R V90I A98S D123E M184V R211K A272P K281R E297K, study 15) | – | 0.5 | – | 0.7 | 0.5 | 300 | 2.8 | – | 1.1 | –
HIV-1 isolate 337 (reverse transcriptase changes: L74I Q151L, study 136) | – | 0.1 | – | 0.8 | 0.1 | 1.8 | 1 | – | 1.1 | –
HIV-1 isolate 367 (reverse transcriptase changes: K70E L74I Q151L, study 136) | – | 0.1 | – | 1.3 | 0.1 | 3.9 | 1.5 | – | 1.4 | –
HIV-1 isolate 378 (reverse transcriptase changes: D121Y K122E D177E A272P K281R L283I A288T T296S, study 15) | 3.6 | 1.1 | 1.8 | 1 | 1 | 1.2 | 1.1 | 1.9 | 1.1 | –
HIV-1 isolate 433 (reverse transcriptase changes: K20R A33G D67G T69D K70R V118I K122E I135T M184V Q197P T200A F214L K219Q T286P I293V E297A, study 15) | 0.8 | 0.8 | 0.4 | 1.2 | 2.4 | ≥ 200 | 3.6 | 0.5 | 1.3 | –
HIV-1 isolate 489 (reverse transcriptase changes: E40F M41L K43E D67N V108I V118I K122E D123E Y181C L210W R211K T215Y K219N A272P T286A, study 65) | 56 | 4.6 | ≥ 400 | 6.4 | – | 7.6 | 6.8 | 1.2 | 2.5 | –
HIV-1 isolate 539 (reverse transcriptase changes: P19S K101P K103N E138G E169K K173E D177E I178M V179I G196E V245E A272P E297K, study 15) | 200 | 0.7 | 300 | 1 | 0.3 | 0.6 | 0.8 | ≥ 500 | 1 | –
HIV-1 isolate 545 (reverse transcriptase changes: A62V V75I F77L F116Y Q151M M184V, study 136) | – | 0.8 | – | 6.3 | 42 | 110 | 21 | – | 14 | –
HIV-1 isolate 563 (reverse transcriptase changes: M41L K122E D123E I142V K166R M184V Q207E R211K T215Y V245E A272P K281R E297K, study 15) | 0.3 | 1.1 | 0.6 | 1.6 | 4.9 | 300 | 5.6 | 0.3 | 1.7 | –

Test System | fold change of IC50 against reference virus (delavirdine) | fold change of IC50 against reference virus (tenofovir) | fold change of IC50 against reference virus (nevirapine) | fold change of IC50 against reference virus (stavudine) | fold change of IC50 against reference virus (zidovudine) | fold change of IC50 against reference virus (emtricitabine) | fold change of IC50 against reference virus (abacavir) | fold change of IC50 against reference virus (efavirenz) | fold change of IC50 against reference virus (didanosine) | fold change of IC50 against reference virus (zalcitabine)
HIV-1 isolate 571 (reverse transcriptase changes: K20R E28K K32E T39A M41L E44D D67N V118I D123E I135K Q174R D177E M184V G196E T200A L210W R211K T215Y V245E E297K, study 15) | 0.1 | 1.3 | 0.2 | 2.4 | 35 | ≥ 200 | 6.1 | 0.3 | 1.6 | –
HIV-1 isolate 598 (reverse transcriptase changes: K20R T39N V60I D67N T69N K70R K122E I135T Q174H D177E V179I M184V I195T T200A R211T F214L K219Q A272P L282F A288T E297K, study 15) | 0.2 | 0.8 | 0.2 | 0.9 | 1.1 | ≥ 200 | 2.6 | 0.2 | 1.1 | –
HIV-1 isolate 636 (reverse transcriptase changes: K32R V35E M41L T69A R83K K101H D123E I142V M164I K166R E169D I178M Y181C M184V H221Y L228H V241I A272S K277R E297K, study 15) | 200 | 0.6 | 300 | 0.8 | 0.5 | ≥ 200 | 2.4 | 13 | 1.7 | –
HIV-1 isolate 654 (reverse transcriptase changes: V35I V118I D123E D177E R211K F214L V245M E248D D250E A288S, study 15) | 1.1 | 0.8 | 0.8 | 1.2 | 0.9 | 1 | 1 | 0.8 | 1.1 | –
HIV-1 isolate 691 (reverse transcriptase changes: M41L V60I D67N K70R K122E D123S I135V K166R D177E T200I E203D R211K F214L T215F D218E K219Q L228H V245M A272P, study 15) | 0.4 | 5.5 | 0.3 | 2.6 | 490 | 6.4 | 3.6 | 0.3 | 2 | –
HIV-1 isolate 869 (reverse transcriptase changes: T39A M41L D67N L74V V118I K122E I135T I142V M184V R211K T215Y D218E K219Q R284K, study 15) | 0.3 | 0.6 | 0.3 | 2 | – | ≥ 200 | 7.4 | 0.3 | 2.5 | –
HIV-1 isolate 967 (reverse transcriptase changes: A62V V75I F77L F116Y Q151M, study 136) | – | 2.9 | – | 14 | 65 | 33 | 19 | – | 13 | –
HIV-1 isolate 985 (reverse transcriptase changes: Q151L, study 136) | – | 0.1 | – | 0.7 | 0.1 | 1.1 | 0.6 | – | 1.2 | –
HIV-1 isolate 1019 (reverse transcriptase changes: M16V V35I T39A D67N K70R R83K K101A V106I K122P I178M V179I M184V G190A R211K K219Q I244V A272P, study 15) | – | 0.5 | – | 0.9 | 0.8 | 300 | 3 | – | 1.3 | –
HIV-1 isolate 1038 (reverse transcriptase changes: V35M K49R D67G S68G K70R D121H K122E D123S I135T Q174R P176T I178M Y181C T200A R211K T215F D218E K219E V245Q L260I K277R, study 15) | 41 | 2.3 | ≥ 400 | 1.7 | 97 | 3 | 2.5 | – | 1.1 | –
HIV-1 isolate 1102 (reverse transcriptase changes: K70E L74I Q151L L187F, study 136) | – | 0.1 | – | 1.1 | 0.1 | 3.4 | 1.1 | – | 1.3 | –
HIV-1 isolate 1146 (reverse transcriptase changes: V75T K122E F214L A272P K277R A376T A400T D460N S468T H483Y K512Q S519N, study 20) | – | – | – | 7.6 | 2 | 3 | – | – | 5.5 | 19
HIV-1 isolate 1435 (reverse transcriptase changes: K122E F214L A272P K277R A376T A400T D460N S468T H483Y K512Q S519N, study 20) | – | – | – | 1 | 1 | 1 | – | – | 1 | 1
HIV-1 isolate 1597 (reverse transcriptase changes: D67N K70R K122E Y181C M184V F214L T215Y K219Q A272P K277R A376T A400T D460N S468T H483Y K512Q S519N, study 44) | – | – | 46 | – | 4 | 5000 | – | – | 1.6 | 4
HIV-1 isolate 1632 (reverse transcriptase changes: A62V V75I F77L Y115F F116Y Q151M Y181C M184V, study 136) | – | 1.2 | – | 7.1 | 88 | 110 | 35 | – | 13 | –
